Pooled drug test results. Numbers come from NIAID ChemDB, via PubChem.

All rows: whole-cell or culture tests; agent: Candida albicans; read-out: MIC

Blank or dashed fields: not listed here. Rows are shuffled and stem from different studies.

| SMILES | strain or isolate | method | value |
|---|---|---|---|
| CCCCCCCCCCC[C@@H]1CC(=O)NCC(=O)N[C@@H](CCCCN)C(=O)N[C@@H](C(C)C)C(=O)N1 | ATCC 24433 | - | 128 µg/mL |
| CC(C)c1ccc(NC(=O)CC2C(=O)OC(C)(C)CN2C(C)C)cc1 | SC5314 | broth dilution | >25 µg/mL |
| O=C1CCC(=O)N1n1c(Cc2ccccc2)n[nH]c1=O | ATCC16231 | - | >250 µg/mL |
| Cc1c(O)cccc1C(=O)N[C@@H](CSc1ccccc1)[C@H](O)CN1C[C@H]2CCCC[C@H]2C[C@H]1C(=O)NC(C)(C)C | I161A | - | 64 µg/mL |
| C[C@@H]1[C@@H](COCC(=O)O)C[C@@H](O[C@H]2[C@H](O)[C@@H](N(Cc3ccc([N+](=O)[O-])cc3)CC(O)C[N+](C)(C)C)[C@H](O[C@H]3[C@H](O)[C@@H](N(Cc4ccc([N+](=O)[O-])cc4)CC(O)C[N+](C)(C)C)[C@H](C)O[C@@H]3COCC(=O)O)O[C@@H]2COCC(=O)O)[C@H](N(Cc2ccc([N+](=O)[O-])cc2)CC(O)C[N+](C)(C)C)[C@H]1O | RCMB 05031 | broth dilution | 6.5 µg/mL |
| CC(C)(C)c1ccc(COC(Cn2ccnc2)c2ccc(Cl)cc2)cc1 | CA7 | - | 128 µg/mL |
| CC(C)[C@]1(O)CC[C@]2(C)C[C@@H]3O[C@]3(C)C[C@H](OC(=O)c3ccccc3)C21 | SC5314 | - | >50 µg/mL |
| COc1ccc([C@H]2SCC(=O)N2c2nc(N3CCOCC3)n[nH]2)cc1OC | A39 | broth dilution | >100 µg/mL |
| CCc1c(Cc2ccc(Cl)cc2)[nH]c(=S)[nH]c1=O | ATCC 10231 | - | 25 µg/mL |
| CC(=O)OCCn1c(Cc2ccc(Cl)cc2)nn(C(C)=O)c1=O | ATCC16231 | - | >250 µg/mL |
| Clc1ccccc1C(c1ccccc1)(c1ccccc1)n1ccnc1 | MTCC 8184 | - | 0.1 µg/mL |
| CC(C)(O)c1cn(-c2ccc(Cl)cc2)nn1 | URM 3719 | broth dilution | 256 µg/mL |
| COc1ccc([C@H]2SC(C)C(=O)N2c2nc(N3CCOCC3)n[nH]2)cc1OC | A39 | broth dilution | 10 µg/mL |
| Cc1c(/C(=N/O)c2ccc(Cl)cc2)oc2ccc(Cl)cc12 | Clinical isolate | - | 12.5 µg/mL |
| COc1ccc2c(Cc3ccc(C(C)(C)C)cc3)c3[n+](cc2c1OC)CCc1cc2c(cc1-3)OCO2 | Isolate YH-003 | - | 3.13 µg/mL |
| O=C(NN1C(=O)/C(=C\c2cccc([N+](=O)[O-])c2)SC1c1ccc(F)cc1)c1ccc(-c2ccccc2)cc1 | MTCC 8184 | - | 6.25 µg/mL |
| O=C(Nc1nc2ccc(NC(=O)[C@@H]3CCC[C@H](NCc4ccc5ccccc5c4)C3)cc2s1)C1CCCC1 | IFM 47601 (B59630) | - | 3.13 µM |
| CNn1c(-c2ccccc2)nn(CC(C)C)c1=O | ATCC16231 | - | >250 µg/mL |
| Clc1ccc(C(Cn2ccnc2)OC/C=C/c2ccccc2)cc1 | 3M | - | 128 µg/mL |
| C[C@@H](SC1COC(/C=C/C=C/c2ccc(C#N)cc2F)OC1)[C@](O)(Cn1cncn1)c1ccc(F)cc1F | CAL-0002 | - | 8 µg/mL |
| CNn1c(-c2ccccc2)nn(C)c1=O | ATCC16231 | - | >250 µg/mL |
| Clc1ccc(C(Cn2ccnc2)OCc2cccc3ccccc23)cc1 | CA2 | - | >128 µg/mL |
| O=C1c2ccccc2C(=O)N1n1c(Cc2ccc(Cl)cc2)n[nH]c1=O | ATCC16231 | - | >250 µg/mL |
| CCN1CC(C)(C)OC(=O)C1CC(=O)Nc1ccccn1 | SC5314 | broth dilution | >50 µg/mL |
| CCc1c(Cc2ccc(Cl)cc2)nc(SCCN2CCCC2)[nH]c1=O | ATCC 10231 | - | 25 µg/mL |
| CCCCCCCCCCCCCC[C@@H](N)C(=O)N[C@H](C(=O)O)C1O[C@@H](n2ccc(=O)[nH]c2=O)[C@H](O)[C@@H]1O | 124 NIK (nikkomycin-R) | - | >320 µg/mL |
| CCCCCCCCC[C@@H]1CC(=O)NCC(=O)N[C@@H](CCCCNCCC)C(=O)N[C@@H](C(C)C)C(=O)N1 | ATCC 24433 | - | 8 µg/mL |
| c1ccc(C(Cn2ccnc2)OCc2cccc3ccccc23)cc1 | CA7 | - | 128 µg/mL |
| CCN1CC(C)(C)OC(=O)C1CC(=O)NC1CCCC1 | SC5314 | broth dilution | 50 µg/mL |
| CC(C)[C@]1(O)CC[C@]2(C)C[C@@H]3O[C@]3(C)C[C@H](OC(=O)c3ccc(O)cc3)C21 | SC5314 | - | >50 µg/mL |
| CCCCCCCCC[C@@H]1CC(=O)NCC(=O)N[C@@H](CCCN)C(=O)N[C@@H](C(C)C)C(=O)N1 | ATCC 24433 | - | 4 µg/mL |
| CCN1CCOCC1CC(=O)Nc1ccc(C(C)C)cc1 | SC5314 | broth dilution | >50 µg/mL |
| CCc1c(Cc2ccc(Cl)cc2)nc(SCCCN2C(=O)c3ccccc3C2=O)[nH]c1=O | ATCC 10231 | - | 100 µg/mL |
| O=C(NN1C(=O)/C(=C\c2cccc([N+](=O)[O-])c2)SC1c1ccccc1)c1ccc(-c2ccccc2)cc1 | MTCC 8184 | - | 3.12 µg/mL |
| COc1ccc(CN(CC(O)C[N+](C)(C)C)[C@@H]2[C@@H](O)[C@H](O[C@@H]3O[C@H](COCC(=O)O)[C@@H](O[C@@H]4C[C@H](COCC(=O)O)[C@@H](C)[C@H](O)[C@H]4N(Cc4ccc(OC)cc4)CC(O)C[N+](C)(C)C)[C@H](O)[C@H]3N(Cc3ccc(OC)cc3)CC(O)C[N+](C)(C)C)[C@@H](COCC(=O)O)O[C@H]2C)cc1 | RCMB 05031 | broth dilution | 75 µg/mL |
| Clc1ccc(C(Cn2ccnc2)OCc2cccc3ccccc23)c(Cl)c1 | PR1 | - | 2 µg/mL |
| COc1cc(C(=O)O[C@H]2C[C@@]3(C)O[C@H]3C[C@@]3(C)CC[C@@](O)(C(C)C)C23)ccc1O | SC5314 | - | >50 µg/mL |
| C[C@@H]1[C@@H](COCC(=O)O)C[C@@H](O[C@H]2[C@H](O)[C@@H](N(Cc3ccc(Cl)cc3)CC(O)C[N+](C)(C)C)[C@H](O[C@H]3[C@H](O)[C@@H](N(Cc4ccc(Cl)cc4)CC(O)C[N+](C)(C)C)[C@H](C)O[C@@H]3COCC(=O)O)O[C@@H]2COCC(=O)O)[C@H](N(Cc2ccc(Cl)cc2)CC(O)C[N+](C)(C)C)[C@H]1O | RCMB 05031 | broth dilution | 25 µg/mL |
| C[C@@H](N1CCN(c2ccc(-n3cnnn3)cc2)C1=O)[C@@](O)(Cn1cncn1)c1ccc(F)cc1F | TA | - | 2 µg/mL |
| COc1ccc2c(C)c(C(=O)c3ccccc3)oc2c1 | NRRL Y-27077 | - | 25 µg/mL |
| CCCCCCCCC[C@@H]1CC(=O)NCC(=O)N[C@@H](CCCCN)C(=O)N[C@@H](C(C)C)C(=O)N1 | ATCC 24433 | - | 4 µg/mL |
| CC(C)(C)c1ccc(COC(Cn2ccnc2)c2ccccc2)cc1 | CDCB385 | - | 128 µg/mL |
| CCCCCCCCC[C@@H]1CC(=O)NCC(=O)N[C@@H](CCCCN)C(=O)N[C@@H](CCC(=O)O)C(=O)N1 | ATCC 24433 | - | 64 µg/mL |
| CCN1CC(C)(C)OC(=O)C1CC(=O)Nc1ccncn1 | SC5314 | broth dilution | >50 µg/mL |
| O=C1CCC(=O)N1n1c(Cc2ccc(Cl)cc2)n[nH]c1=O | ATCC16231 | - | >250 µg/mL |
| CCc1c(Cc2ccc(OC)c(OC)c2)nc(SCCN2CCOCC2)[nH]c1=O | ATCC 10231 | - | 50 µg/mL |
| O=C(NN1C(=O)/C(=C\c2ccccc2)SC1c1cccc(Br)c1)c1ccc(-c2ccccc2)cc1 | MTCC 8184 | - | 3.12 µg/mL |
| CN1CCN(c2n[nH]c(N3C(=O)CS[C@@H]3c3ccc4c(c3)OCO4)n2)CC1 | A39 | broth dilution | 1.56 µg/mL |
| CC(C)[C@]1(C)CC[C@]2(C)C=C[C@](C)(O)C[C@H](OC(=O)c3ccccc3)C12 | SC5314 | - | >50 µg/mL |
| Cc1ccc(CN(CC(O)C[N+](C)(C)C)[C@@H]2[C@@H](O)[C@H](O[C@@H]3O[C@H](COCC(=O)O)[C@@H](O[C@@H]4C[C@H](COCC(=O)O)[C@@H](C)[C@H](O)[C@H]4N(Cc4ccc(C)cc4)CC(O)C[N+](C)(C)C)[C@H](O)[C@H]3N(Cc3ccc(C)cc3)CC(O)C[N+](C)(C)C)[C@@H](COCC(=O)O)O[C@H]2C)cc1 | RCMB 05031 | broth dilution | 95.16 µg/mL |
| O=C(c1ccccc1)c1oc2ccccc2c1Cn1cncn1 | Clinical isolate | - | 25 µg/mL |
| CCN1CC(C)(C)OC(=O)C1CC(=O)NCCC(C)(C)C | SC5314 | broth dilution | >25 µg/mL |
| O/N=C(\c1ccccc1)c1oc2ccc(Cl)cc2c1Cn1cncn1 | Clinical isolate | - | 25 µg/mL |
| CCNC(=O)CC1C(=O)OC(C)(C)CN1CC | SC5314 | broth dilution | 50 µg/mL |
| C[C@@H](N1CCN(c2ccc(-n3cnnn3)cc2)C1=O)[C@](O)(Cn1cncn1)c1ccc(F)cc1F | TIMM1756 | - | 4 µg/mL |
| O=C1CS[C@H](c2ccc3c(c2)OCO3)N1c1nc(N2CCOCC2)n[nH]1 | A39 | broth dilution | 1.04 µg/mL |
| Cc1ccc(C(Cn2ccnc2)OC/C=C/c2ccccc2)cc1 | CA6 | - | 128 µg/mL |
| Cc1ccc(C)n1-n1c(Cc2ccc(Cl)cc2)n[nH]c1=O | ATCC16231 | - | >250 µg/mL |

Again, the opening 6 rows:

SMILES | strain or isolate | method | value
CCCCCCCCCCC[C@@H]1CC(=O)NCC(=O)N[C@@H](CCCCN)C(=O)N[C@@H](C(C)C)C(=O)N1 | ATCC 24433 | - | 128 µg/mL
CC(C)c1ccc(NC(=O)CC2C(=O)OC(C)(C)CN2C(C)C)cc1 | SC5314 | broth dilution | >25 µg/mL
O=C1CCC(=O)N1n1c(Cc2ccccc2)n[nH]c1=O | ATCC16231 | - | >250 µg/mL
Cc1c(O)cccc1C(=O)N[C@@H](CSc1ccccc1)[C@H](O)CN1C[C@H]2CCCC[C@H]2C[C@H]1C(=O)NC(C)(C)C | I161A | - | 64 µg/mL
C[C@@H]1[C@@H](COCC(=O)O)C[C@@H](O[C@H]2[C@H](O)[C@@H](N(Cc3ccc([N+](=O)[O-])cc3)CC(O)C[N+](C)(C)C)[C@H](O[C@H]3[C@H](O)[C@@H](N(Cc4ccc([N+](=O)[O-])cc4)CC(O)C[N+](C)(C)C)[C@H](C)O[C@@H]3COCC(=O)O)O[C@@H]2COCC(=O)O)[C@H](N(Cc2ccc([N+](=O)[O-])cc2)CC(O)C[N+](C)(C)C)[C@H]1O | RCMB 05031 | broth dilution | 6.5 µg/mL
CC(C)(C)c1ccc(COC(Cn2ccnc2)c2ccc(Cl)cc2)cc1 | CA7 | - | 128 µg/mL